Results reported in the supplement of paper PMC3578754.

How the values were obtained:
Test in all cases: fold change of IC50 against reference virus; higher = more resistant; Cell-culture drug susceptibility tests of virus bearing the protease of each isolate, gathered from many studies.
saquinavir = compound: CC(C)(C)NC(=O)[C@@H]1C[C@@H]2CCCC[C@@H]2CN1C[C@@H](O)[C@H](Cc1ccccc1)NC(=O)[C@H](CC(N)=O)NC(=O)c1ccc2ccccc2n1 [saquinavir]
atazanavir = compound: COC(=O)N[C@H](C(=O)N[C@@H](Cc1ccccc1)[C@@H](O)CN(Cc1ccc(-c2ccccn2)cc1)NC(=O)[C@@H](NC(=O)OC)C(C)(C)C)C(C)(C)C [atazanavir]
lopinavir = compound: Cc1cccc(C)c1OCC(=O)N[C@@H](Cc1ccccc1)[C@@H](O)C[C@H](Cc1ccccc1)NC(=O)[C@H](C(C)C)N1CCCNC1=O [lopinavir]
indinavir = compound: CC(C)(C)NC(=O)[C@@H]1CN(Cc2cccnc2)CCN1C[C@@H](O)C[C@@H](Cc1ccccc1)C(=O)N[C@H]1c2ccccc2C[C@H]1O [indinavir]
nelfinavir = compound: Cc1c(O)cccc1C(=O)N[C@@H](CSc1ccccc1)[C@H](O)CN1C[C@H]2CCCC[C@H]2C[C@H]1C(=O)NC(C)(C)C [nelfinavir]
ritonavir = compound: CC(C)c1nc(CN(C)C(=O)N[C@H](C(=O)N[C@@H](Cc2ccccc2)C[C@H](O)[C@H](Cc2ccccc2)NC(=O)OCc2cncs2)C(C)C)cs1 [ritonavir]

Row | Test System | fold change of IC50 against reference virus (saquinavir) | fold change of IC50 against reference virus (atazanavir) | fold change of IC50 against reference virus (lopinavir) | fold change of IC50 against reference virus (indinavir) | fold change of IC50 against reference virus (nelfinavir) | fold change of IC50 against reference virus (ritonavir)
1 | HIV-1 isolate 1360 (protease changes: L10I L19I M46I I62V L63P I72M G73S V77I V82F L90M I93L, study 83) | 2.2 | 9.5 | 40 | 41 | 43 | 69
2 | HIV-1 isolate 18 (protease changes: T12S K14R R41K K45R I50L L63A H69Q A71V V77I, study 15) | 0.5 | 4.1 | 0.3 | 0.4 | 0.6 | 0.2
3 | HIV-1 isolate 13 (protease changes: T12E L63P, study 15) | 0.8 | 1.1 | 1.1 | 0.8 | 1.1 | 1.2
4 | HIV-1 isolate 1570 (protease changes: L10F M46L I54V Q58E D60E Q61D L63P A71T I72R V77I V82A L90M I93L, study 15) | 18 | 13 | 67 | 42 | 58 | 102
5 | HIV-1 isolate 785 (protease changes: L10I L63V, study 15) | 0.9 | 0.7 | 0.7 | 1.2 | 0.9 | 0.7
6 | HIV-1 isolate 1061 (protease changes: I72V, study 15) | 0.6 | 0.4 | 0.5 | 0.5 | 0.5 | 0.5
7 | HIV-1 isolate 1212 (protease changes: N37T L63P, study 15) | 1 | 1.5 | 1.3 | 1.2 | 1.9 | 1.7
8 | HIV-1 isolate 224 (protease changes: L63P I72E V77I, study 15) | 0.6 | 0.6 | 0.4 | 0.4 | 0.7 | 0.4
9 | HIV-1 isolate 1269 (protease changes: I54M Q58E L63P, study 78) | 1.9 | 3.4 | 2.9 | 2 | 4.7 | 4.4
10 | HIV-1 isolate 1384 (protease changes: L19I R41K L63P I72M V77I L90M, study 15) | 1.5 | 1.5 | 1 | 1.4 | 2.9 | 2.6
11 | HIV-1 isolate 1635 (protease changes: L33V I62V L63P L89I, study 15) | 0.8 | 1.3 | 1 | 1.4 | 1.1 | 1.6
12 | HIV-1 isolate 1167 (protease changes: L10F I13V I54V I62V L63P A71V V82A, study 21) | 2.1 | 2.3 | 30 | 9.6 | 12 | 19
13 | HIV-1 isolate 295 (protease changes: E35D D60E L63P H69Q A71T I72V V77I, study 15) | 1.8 | 1.6 | 1 | 1.9 | 4.4 | 2.1
14 | HIV-1 isolate 823 (protease changes: L10F M46I I50L I54V L63P A71V G73S V77I V82A, study 15) | 1.6 | 76 | 3.6 | 4.2 | 8.3 | 6.5
15 | HIV-1 isolate 1071 (protease changes: L10F I15V D30N L33F E35D M36L N37E K43T D60E I62V L63P I84V N88D L90M I93L, study 64) | 400 | 128 | 30 | 27 | ≥ 600 | 78
16 | HIV-1 isolate 1154 (protease changes: L10I K20R L33F E34T E35D M36I N37D K43T M46I G48V I50V I54S I62V L63P A71V I72V V77I V82A I85V I93L, study 83) | 800 | 75 | 400 | 400 | 91 | 400
17 | HIV-1 isolate 1241 (protease changes: L63P, study 138) | 0.8 | 0.7 | 0.6 | 0.8 | 1 | 0.7
18 | HIV-1 isolate 382 (protease changes: L10V I13V I15V K20R L24F L33F E35D M36I N37E I54V I62V L63P K70E A71V V82A L90M I93L, study 15) | 77 | 60 | 110 | 31 | 81 | 300
19 | HIV-1 isolate 682 (protease changes: T12S I15V L19I K20R E35D M36I R41K H69K L89M I93L, study 41) | 0.8 | 1.2 | 0.8 | 1 | 1.3 | 1.3
20 | HIV-1 isolate 152 (protease changes: L10V M36I N37D L63P H69Q I93L, study 15) | 0.5 | 0.6 | 0.8 | 0.7 | 1.4 | 0.9

Fold change is the IC50 on the isolate divided by the IC50 on a reference virus; 1 = unchanged, higher = more resistant. Changes are given against the subtype B consensus. No active / inactive call. The values were gathered from many studies (numbered anew) with different assays, which the source does not name. Most viruses are clinical isolates; some are laboratory strains or clones with known resistance changes. Isolates with mixed residues are left out; stretches that were not sequenced show no change. Round top values that many isolates share are read here as limits; other very high values and 0.1 may be limits too. The protease changes I3V and N37S, insertions and deletions cannot be read from the source.
